Anti-infective test results gathered from many reports (values: NIAID ChemDB through PubChem).

Common to all: tests in culture; agent: Hepatitis B virus

ECn is the concentration giving n% inhibition of infection, replication or growth. An empty or dashed field is not shown. Percent inhibition refers to the dose given; in toxicity tests it is the harm to the cells. Neighbouring rows are from separate reports. a–b is a range or a potency band.

compound	strain	cells	method	measure	tested at	result
Nc1nc2c(ncn2[C@H]2CC[C@@H](CO)O2)c(=O)[nH]1	-	HepG2.2.15	-	EC90	-	9 µM
Nc1ccn([C@@H]2CS[C@H](CO)O2)c(=O)n1	L526M	-	-	EC50	-	0.8 µM
Nc1ncnc2c1ncn2CCOCP(=O)(O)O	RTM204	HEPAD79	-	EC90	-	~10 µM
Nc1nc2c(ncn2[C@@H]2C[C@H](CO)[C@@H](O)C2)c(=O)[nH]1	-	HepG2.2.15	-	EC90	-	0.1 µM
CC1COP(=O)(CO[C@H](C)Cn2cnc3c(N)ncnc32)OC1	Genotype D	PHH	PCR	inhibition	1 µM	30–50%
Nc1nc2c(ncn2CCOCP(=O)(O)O)c(=O)[nH]1	-	HB611	-	EC50	-	0.25 µM
O=c1[nH]c(=O)n([C@H]2C[C@H](F)[C@@H](CO)O2)cc1Cl	-	HepG2.2.15	-	EC90	-	>100 µM
CCOC(=O)CC1COP(=O)(CO[C@H](C)Cn2cnc3c(NC(=O)c4ccccc4)ncnc32)OC1	Genotype D	HepaRG	PCR	inhibition	1 µM	≤30%
Nc1ccn([C@H]2O[C@@H](CO)C=C2F)c(=O)n1	RTM204	HepAD38	-	EC90	-	0.74 µM
O=c1ccn([C@H]2CC[C@@H](CO)O2)c(=O)[nH]1	-	HepG2.2.15	-	EC90	-	92 µM
Nc1nc(=O)n([C@H]2CS[C@@H](CO)O2)cc1F	RTM204	HepAD38	-	EC90	-	6.94 µM
CCOC(=O)CC1COP(=O)(CO[C@H](C)Cn2cnc3c(NC(=O)CC(C)C)ncnc32)OC1	Genotype D	PHH	PCR	inhibition	1 µM	≤30%
Nc1ncnc2c1ncn2CCOCP(=O)(O)O	Mutations L526M M550V	HepG2	-	EC50	-	0.16 µM
Nc1ncnc2c1ncn2[C@H]1CC[C@@H](CO)O1	-	HepG2.2.15	-	EC90	-	96 µM
Nc1nc2c(ncn2CCC(CO)CO)c(=O)[nH]1	WILD TYPE	HepG2	-	inhibition	50 µM	84%
Nc1ccn([C@H]2CC[C@@H](CO)O2)c(=O)n1	-	HepG2.2.15	-	EC90	-	6 µM
COC(=O)CC1COP(=O)(CO[C@H](C)Cn2cnc3c(N)ncnc32)OC1	Genotype D	PHH	PCR	inhibition	1 µM	≤30%
Cc1cn([C@H]2C[C@H](F)[C@@H](CO)O2)c(=O)[nH]c1=O	-	HepG2.2.15	-	EC90	-	40 µM
Nc1ccn([C@@H]2CS[C@H](CO)O2)c(=O)n1	WILD TYPE	HepG2	-	inhibition	0.01 µM	65%
Nc1nc(=O)n([C@@H]2CC[C@H](CO)O2)cc1F	RTM204	HepAD38	-	EC90	-	0.31 µM
CCOC(=O)CC1COP(=O)(CO[C@H](C)Cn2cnc3c(NC(=O)CC)ncnc32)OC1	Genotype D	HepaRG	PCR	inhibition	1 µM	≤30%
[N-]=[N+]=N[C@H]1C[C@H](n2ccc(N)nc2=O)O[C@@H]1CO	-	HepG2.2.15	-	EC90	-	>100 µM
Nc1nc(N)c2ncn(CCOCP(=O)(O)O)c2n1	-	HB611	-	EC50	-	0.07 µM
Nc1ccn([C@@H]2CS[C@H](CO)O2)c(=O)n1	Mutations L528M M552V	Huh7	-	EC50	-	>80 µM
Nc1nccc2c1ncn2C[C@H]1COP(=O)(O)CO1	-	HB611	-	EC50	-	200 µM
Nc1ncnc2c1ncn2CCOCP(=O)(O)O	L526M	-	-	EC50	-	2 µM
Nc1ncnc2c1ncn2CC(O)P(=O)(O)O	-	HB611	-	EC50	-	>400 µM
CCC(CCC(C)C1CCC2C3C[C@@H](O)[C@@]4(O)C[C@@H](O)CCC4(C)C3CCC12C)C(C)C	-	HepG2 2.2.15	antigen	inhibition	50 µg/mL	32.2%

Repeating the final 3 entries:

Nc1ncnc2c1ncn2CCOCP(=O)(O)O ; strain: L526M ; measure: EC50 ; result: 2 µM
Nc1ncnc2c1ncn2CC(O)P(=O)(O)O ; cells: HB611 ; measure: EC50 ; result: >400 µM
CCC(CCC(C)C1CCC2C3C[C@@H](O)[C@@]4(O)C[C@@H](O)CCC4(C)C3CCC12C)C(C)C ; cells: HepG2 2.2.15 ; method: antigen ; measure: inhibition ; tested at: 50 µg/mL ; result: 32.2%